Measured values from several laboratories, pooled; numbers as filed in NIAID ChemDB.

Shared fields: enzyme or target tests

Inhibition is in % at the dose shown (toxicity tests: loss of growth or viability). Blank or dashed fields: not listed here. ICn is the concentration giving n% inhibition. Conditions beyond the fields shown may differ between rows. a–b is a range or a potency band.

SMILES	strain or isolate	endpoint	target	read by	species	dose	changes	value
COc1ccc(N2CCN(c3cncc(-c4cc(C)cc(C)c4)n3)CC2)cc1OC		inhibition	UL97 kinase		Cytomegalovirus	10 µM		>15%
Cc1c(-c2ccc(Cl)c(Cl)c2)sc2nc(N)nc(N)c12	TYPE 1	IC50	Dihydrofolate reductase		Cryptosporidium parvum			>10 µM
O=C(O)CCN1C(=O)C(=Cc2ccc(-c3cccc(Cl)c3)o2)SC1=S		IC50	NS5 polymerase		Bovine viral diarrhea virus			≤1 µM
Nc1nc(N)c2nc(Cc3ccc4ccccc4c3)c(Cc3ccc4ccccc4c3)nc2n1	TYPE 2	IC50	Dihydrofolate reductase		Cryptosporidium parvum			>10 µM
Nc1ccn([C@@H]2CS[C@H](COP(=O)(O)OP(=O)(O)OP(=O)(O)O)O2)c(=O)n1		Ki	Reverse transcriptase	radiometric	HIV		RT-K65R	0.886 µM
Cc1cccc(-c2cncc(N3CCN(c4ccccc4)CC3)n2)c1		IC50	UL97 kinase		Cytomegalovirus			<100 µM
CCCc1ccc(-c2ccc(C=C3SC(=S)NC3=O)s2)cc1		IC50	NS5 polymerase		Bovine viral diarrhea virus			≤1 µM
COc1ccc(OC)c(-c2sc3nc(N)nc(N)c3c2C)c1	TYPE 1	IC50	Dihydrofolate reductase		Cryptosporidium parvum			2.6 µM
O=C(N[C@H](Cc1ccccc1)C(=O)O)c1cc2nc(-c3ccc(Cl)cc3)cc(-c3ccc(Oc4ccccc4)cc3)n2n1		IC50	RNA-dependent RNA polymerase		Hepatitis C virus			1–10 µM
O=Cc1ccc(C=C2SC(=S)N(c3ccc(C(=O)O)cc3)C2=O)o1		IC50	NS5 polymerase		Bovine viral diarrhea virus			≤1 µM
Clc1cccc(N2CCN(c3cncc(-c4ccoc4)n3)CC2)c1		IC50	UL97 kinase		Cytomegalovirus			<10 µM
O=C(O)c1cc2nc(-c3ccc(C(F)(F)F)cc3)cc(-c3ccc(Cl)cc3)n2n1		IC50	RNA-dependent RNA polymerase		Hepatitis C virus			>10 µM
Nc1nc(N)c2c(ccc3ccc(Cl)cc32)n1	TYPE 2	IC50	Dihydrofolate reductase		Cryptosporidium parvum			0.023 µM
O=C(O)CCN1C(=O)C(=Cc2ccc(-c3ccc4c(c3)Cc3ccccc3-4)o2)SC1=S		IC50	NS5 polymerase		Bovine viral diarrhea virus			≤1 µM
CC(C)N(c1cc(-c2ccccc2)sc1C(=O)O)S(=O)(=O)c1ccccc1Cl		IC50	NS3 ATPase		Hepatitis C virus			5–20 µM
O=C(O)c1cc2nc(-c3ccc(OCc4ccccc4)cc3)cc(-c3cccc(Cl)c3)n2n1		IC50	RNA-dependent RNA polymerase		Hepatitis C virus			1–10 µM
COc1ccc(OC)c(CCc2sc3nc(N)nc(N)c3c2C)c1	TYPE 1	IC50	Dihydrofolate reductase		Cryptosporidium parvum			>10 µM
Cc1ccc(-c2cncc(N3CCN(c4cnccn4)CC3)n2)cc1		inhibition	UL97 kinase		Cytomegalovirus	1 µM		<50%
Nc1nc(N)c2c(n1)Cc1c-2ccc(Cl)c1Cl	TYPE 2	IC50	Dihydrofolate reductase		Cryptosporidium parvum			>10 µM
Cc1cc(C)cc(-c2cncc(N3CCN(c4ccccc4)CC3)n2)c1		inhibition	UL97 kinase		Cytomegalovirus	10 µM		>15%
CS(=O)(=O)c1cccc(-c2ccc(-c3cnc4c(-c5nn[nH]n5)cnn4c3C3CCCCC3)cc2)c1		IC50	RNA-dependent RNA polymerase		Hepatitis C virus			<1 µM
Fc1cccc(-c2cncc(N3CCN(c4ccccc4)CC3)n2)c1		inhibition	UL97 kinase		Cytomegalovirus	10 µM		>15%
O=C(N[C@@H](Cc1cc2ccccc2[nH]1)C(=O)O)c1cc2nc(-c3ccoc3)c(C3CCCCC3)c(=O)n2[nH]1		IC50	RNA-dependent RNA polymerase		Hepatitis C virus			<1 µM
COc1cccc(N2CCN(c3cncc(-c4cccc(C(C)=O)c4)n3)CC2)c1		inhibition	UL97 kinase		Cytomegalovirus	1 µM		<50%
Cc1cc(C)c(C(=O)N(c2cc(-c3ccccc3)sc2C(=O)O)C(C)C)c(C)c1		IC50	NS3 ATPase		Hepatitis C virus			5–20 µM
O=C(O)CCN1C(=O)C(=Cc2ccc(-c3cc(C(F)(F)F)ccc3Cl)o2)SC1=S		IC50	NS5 polymerase		Bovine viral diarrhea virus			≤1 µM
Cc1ccccc1S(=O)(=O)Nc1cc(-c2ccccc2C(F)(F)F)sc1C(=O)O		IC50	NS3 ATPase		Hepatitis C virus			5–20 µM
c1cc(OC2CCCC2)cc(-c2cnc3c(-c4nn[nH]n4)cnn3c2C2CCCCC2)c1		IC50	RNA-dependent RNA polymerase		Hepatitis C virus			1–10 µM
COc1ccc(S(=O)(=O)Nc2cc(-c3ccccc3)sc2C(=O)O)c([N+](=O)[O-])c1		IC50	NS3 ATPase		Hepatitis C virus			5–20 µM
CSCC[C@H](NC(=O)c1cnn2c(C3CCCCC3)c(-c3ccc(F)cc3)cnc12)C(=O)O		IC50	RNA-dependent RNA polymerase		Hepatitis C virus			1–10 µM

3 of the rows above, restated:

{"SMILES": "CCCc1ccc(-c2ccc(C=C3SC(=S)NC3=O)s2)cc1", "endpoint": "IC50", "target": "NS5 polymerase", "species": "Bovine viral diarrhea virus", "value": "≤1 µM"}
{"SMILES": "O=C(O)c1cc2nc(-c3ccc(OCc4ccccc4)cc3)cc(-c3cccc(Cl)c3)n2n1", "endpoint": "IC50", "target": "RNA-dependent RNA polymerase", "species": "Hepatitis C virus", "value": "1–10 µM"}
{"SMILES": "O=C(O)c1cc2nc(-c3ccc(C(F)(F)F)cc3)cc(-c3ccc(Cl)cc3)n2n1", "endpoint": "IC50", "target": "RNA-dependent RNA polymerase", "species": "Hepatitis C virus", "value": ">10 µM"}